Common to all, as to test: pseudovirus neutralization IC50; higher = weaker neutralization
The target of experiment [1] is SARS-CoV-2 Omicron BA.1 spike pseudovirus. The method, then: (§1)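 Single-round VSV luciferase pseudovirus mixed with antibody dilutions for 1 h and put on Huh-7 cells for about a day; IC50 from the dose curve.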
Experiment [2] addresses SARS-CoV-2 Omicron BA.2 spike pseudovirus. The method, then: as §1
Experiment [3] concerns the target SARS-CoV-2 Omicron BA.2.75 spike pseudovirus. The method, then:
as §1

Experiment [4] concerns the target SARS-CoV-2 Omicron BA.5 spike pseudovirus. The method, then:
as §1

Experiment [5] deals with SARS-CoV-2 Omicron BQ.1.1 spike pseudovirus. The method, then: as §1
In experiment [6] the target is SARS-CoV-2 Omicron XBB spike pseudovirus. The method, then:
as §1

Experiment [7] deals with SARS-CoV-2 early D614G spike pseudovirus. The method, then:
as §1

Substitutions are numbered along the chain they refer to. Human monoclonal antibodies against the spike receptor-binding domain (heavy:light variable regions). IC50 against pseudoviruses bearing the spike of naturally observed variants; lower = stronger; >10 µg/ml means not reached at the top dose. No active / inactive call. The stated detection limit is 0.0005 µg/ml; values near or below 0.001 µg/ml lie at the floor of the assay. Where only a bound is given, the exact number is not on record here.

Results on 12 molecules are retold here after the supplement of paper PMC9931576.

B1: DH1143 (protein)
chain 1: QVQLVQSGAEVKKPGASVKVSCKASGYTFTSYYMHWVRQAPGQGLEWMGIITPSGGSTSYAQKFQGRVTMTRDTSTSTVYMELSSLRSEDTALYYCARERVGVGIYSRSSESDFPTFDPWGQGTLVTVSS
chain 2: DIQMTQSPSSLSASVGDTVTITCRASQNINNYLNWYQQKPGKAPKLLIYAASSLQSGVPSRFSGSGSETDFTLTISSLQPEDFATYYCQQSYSTPQYSFGQGTKLEIK
Turning to B1, the “pseudovirus neutralization IC50” value in experiment [1], in experiment [2], in experiment [3], in experiment [4], in experiment [5] and in experiment [6] was more than 10 µg/mL throughout. Besides, the “pseudovirus neutralization IC50” value in experiment [7] was 0.681 µg/mL.

B2: BD56-185 (protein)
chain 1: EVQLVESGGGLVQPGRSLRLSCTASGFTFGVYAMSWVRQAPGKGLEWVGFIRSKAYGGATEYAASVEGRFTISRDDYKNIAYLQMNSLKTEDTAVYYCVRVEQWLSSPQTHGDYFDYWGQGILVTVSS
chain 2: QSALTQPASVSGSPGQSISISCTGTSSDVGGYDYVSWFQQHPGKAPKLMIYDVSNRPSGVSNRFSGSKSGSTASLTISGLQAEDEADYYCSSYTTSSTFVFGSGTRVTVL
Turning to B2, the “pseudovirus neutralization IC50” value in experiment [1] is 9.59 µg/mL; in experiment [2], more than 10 µg/mL; in experiment [3] it was more than 10 µg/mL; in experiment [4], more than 10 µg/mL; in experiment [5] it was more than 10 µg/mL; in experiment [6], more than 10 µg/mL. In addition, in experiment [7], the “pseudovirus neutralization IC50” value is more than 10 µg/mL.

B3: BD56-196 (protein)
chain 1: QITLKESGPTLVKPTQTLTLTCTFSGFSLSTSGVGVGWIRQPPGKALEWLALIYWDDDKRYSPSLKSRLTITKDASKNHVVLTMTNMDPVDTATYYCALKDYDGSGRSLNWGYFDYWGQGTLVTVSS
chain 2: DIQMTQSPSSLSASVGDRVTITCRASQSIDIYLNWYQQKRGKAPNLLIYAASSLQNGVPSRFTGSGSGTDFTLTISSLQPEDFATYFCQQSYSNLYTFGQGTKLEIK
As to B3, the “pseudovirus neutralization IC50” value came to 4.49 µg/mL in experiment [1]; 3.89 µg/mL in experiment [2]; 3.04 µg/mL in experiment [3]; 5.08 µg/mL in experiment [4]; 2.44 µg/mL in experiment [5]; 5.17 µg/mL in experiment [6]. Also, the “pseudovirus neutralization IC50” value in experiment [7] is 5.27 µg/mL.

B4: BD56-204 (protein)
chain 1: EVQLVQSGAEVKKPGEPLKISCSVSGYKFTSYWIGWVRQMPGKGLEWMGIIYPGDSNTRYSPSFQGQVTISVDKSISTAYLQWSSLKASDTAMYYCARLYYYGSGSYYNPDPDWFDPWGQGTLVTVSS
chain 2: QSVLTQPPSVSGAPGQRVTISCTGSSSNIGAGYDVHWYQQLPGTAPKLLIYVNNNRPSGVPDRVSGSKSGTSASLAITGLQAEDEADYYCQSYDSSLSVWVFGGGTKLTVL
Consider B4, for which the “pseudovirus neutralization IC50” value was 3.71 µg/mL in experiment [1]; 3.23 µg/mL in experiment [2]; 2.9 µg/mL in experiment [3]; 3.04 µg/mL in experiment [4]; 2.44 µg/mL in experiment [5]; 2.36 µg/mL in experiment [6]. The “pseudovirus neutralization IC50” value in experiment [7] came to 1.19 µg/mL.

B5: BD56-191 (protein)
chain 1: QLVEFGGGLVKPGGSLRLSCAASGFTFSDYYMSWIRQAPGKGLEWLSYISSGGDYIYYGDSVTGRFTVSRDNAKNVLYLQMNSLRADDTAVYYCARGGSLYSSSFEWVADSWGQGTLVTVSS
chain 2: QSVLTQPPSASGTPGRGVTISCSGGSSNIGGNYVSWYQQLPGTAPKLLIYWNTQRPSGVPDRFSGSKSGSSASLAISGLRSEDEADYYCAAWADRLGGPVFGGGTRLTVL
For B5, the “pseudovirus neutralization IC50” value in experiment [1], in experiment [2], in experiment [3], in experiment [4], in experiment [5] and in experiment [6] was more than 10 µg/mL in each case. Further, in experiment [7], the “pseudovirus neutralization IC50” value was more than 10 µg/mL.

B6: BD56-187 (protein)
chain 1: QVQLVQSGAEVKKPGASVKVSCKASGYTFTGYFLYWVRQAPGQGLQWMGRINPNSGDTDYAQKFQGRVTMTRDTSISTAYLEMSRLRSDDTAVYYCAREPGYDILTDSFRDYWGQGTLVTVSS
chain 2: EIVMTQSPATLSVSPGERATLSCRASQSVSNNLAWYQQKPGQAPRLLIYGASTRATGIPARFSGSGSGTEFTLTINSLQSEDFAVYYCQHYNNWPPWTFGQGTKVEIK
On to B6, for which the “pseudovirus neutralization IC50” value was 0.0035 µg/mL in experiment [1]; 0.00624 µg/mL in experiment [2]; 0.112 µg/mL in experiment [3]; 0.985 µg/mL in experiment [4]; more than 10 µg/mL in experiment [5]; more than 10 µg/mL in experiment [6]. Moreover, in experiment [7], the “pseudovirus neutralization IC50” value was determined as 0.0547 µg/mL.

B7: BD56-188 (protein)
chain 1: QVQLVQSGAEVKKPGASVKVSCKASGNTFTSYYIHWVRQAPGQGLEWMGIINPSGGSTTYAQKFQGRVTMTSDASTSTVYMTLTSLRSEDTAVYYCARGGVVPAARGEFDYWGQGTLVTVSS
chain 2: DIQMTQSPSTLSASVGDRVTITCRASQSISTWLAWYQQKPGMAPKLLIYKASNLESGVPSRFSGSGSGTEFTLTISSLQPDDFATYYCQQSSSFFYTFGQGTKLEIK
In the case of B7, the “pseudovirus neutralization IC50” value in experiment [1] was found to be 2.41 µg/mL; in experiment [2], 2.7 µg/mL; in experiment [3] it was 2.34 µg/mL; in experiment [4], 4.08 µg/mL; in experiment [5] it was 3.69 µg/mL; in experiment [6], 4.47 µg/mL. In experiment [7], the “pseudovirus neutralization IC50” value was determined as 2.02 µg/mL.

B8: BD56-208 (protein)
chain 1: B7 chain 1 with V18L, S31T, T59S, Q62P, V79I, M81I, T82D, T84R, E89D
chain 2: B7 chain 2 with T31N, M42K, A43P, Q90E, S91F, S92N, F94N, F95L, L104V
For B8, the “pseudovirus neutralization IC50” value is 3.06 µg/mL in experiment [1]; 4.28 µg/mL in experiment [2]; 4.94 µg/mL in experiment [3]; 3.63 µg/mL in experiment [4]; 5.42 µg/mL in experiment [5]; 4.47 µg/mL in experiment [6]. Further, the “pseudovirus neutralization IC50” value in experiment [7] turned out to be 5.68 µg/mL.

B9: DH1173 (protein)
chain 1: QVQLVQSGAEVKKPGASVKVSCKASGYTFTGYYMHWVRQAPGQGLEWMGWINPNSGATNYAQKFQGWVTMTRDTSINTAYMELRRLKSDDTAVFYCARETSFAIFGGGGMDVWGQGTTVTVSS
chain 2: QSALTQPASVSGSPGQSITISCTGTSSDIGSYNLVSWYQQHPGKAPKLMIYEGSKRPSGVSNRFSGSKSGNTASLTISGLQAEDEADYYCCSYAGSSTYVFGTGTKVTVL
B9: the “pseudovirus neutralization IC50” value in experiment [1], in experiment [2], in experiment [3], in experiment [4], in experiment [5] and in experiment [6] was more than 10 µg/mL throughout. Moreover, in experiment [7], the “pseudovirus neutralization IC50” value turned out to be 0.0095 µg/mL.

B10: BD56-189 (protein)
chain 1: EDHLVESGGGLVQPGGSLRLSCAASGFTFSSYSMNWVRLAPGKGPEWVSHISSTSANIYYADSVKGRFIISRDNAKQSLYLQMNSLRAEDTAVYFCARDSKTDSSGPSAEWFDPWGQGTLVTVSS
chain 2: SYVLTQPPSVSVAPGKTARITCGGNNIGSKSVHWYQRKPGQAPVVVIFYDSDRPSTIPERFSGSNSGNTATLTINRVEAGDEADYYCQVWDSGVVFGGGTKLTVL
For the molecule B10, the “pseudovirus neutralization IC50” value in experiment [1], in experiment [2], in experiment [3], in experiment [4], in experiment [5] and in experiment [6] was more than 10 µg/mL in each case. Further, the “pseudovirus neutralization IC50” value in experiment [7] is more than 10 µg/mL.

B11: BD56-202 (protein)
chain 1: B10 chain 1 with D2E, T28M, S30N, A56T, Q77K
chain 2: B10 chain 2
Turning to B11, the “pseudovirus neutralization IC50” value in experiment [1], in experiment [2], in experiment [3], in experiment [4], in experiment [5] and in experiment [6] was more than 10 µg/mL in each case. Also, the “pseudovirus neutralization IC50” value in experiment [7] is more than 10 µg/mL.

B12: BD56-218 (protein)
chain 1: EVQLVESGGGLVKPGGSLRLSCAASGFTFSDAWMSWVRQAPGKGLEWVGRVKRKADGGTPDYAAPVKGRFAISRDDSRNRLYLQMNSLKAEDTAVYYCTTTHNWNGEPFDYWGQGTLVTVSS
chain 2: DIEMTQSPSSLSASVGDRVTITCRASQSISRYLNWYQHKVGKAPKVLIYAASSLHSGVPSRFSGSGSGTDFTLTISSLQPEDFATYYCQQSYSSPLTFGGGTKVEFK
As for B12, the “pseudovirus neutralization IC50” value was determined as 8.26 µg/mL in experiment [1]; 7.98 µg/mL in experiment [2]; 7.06 µg/mL in experiment [3]; 5.79 µg/mL in experiment [4]; 6.6 µg/mL in experiment [5]; 9.4 µg/mL in experiment [6]. Also, the “pseudovirus neutralization IC50” value in experiment [7] was more than 10 µg/mL.
